Drawing on ChEMBL document CHEMBL5579834 (Eur J Med Chem, 2024), this text covers Ratio CC50/IC50 and fold change (FC) for eleven compounds.

Series [1] in a line: Selectivity index, ratio of CC50 for HEK293T cells to IC50 for antiviral activity against HIV-based lentiviral pseudotyped Marburgvirus harboring mucin domain deleted GP infected in HEK293T cells assessed as inhibition of viral entry. Type of series: toxicity, cell-based. Conditions: human.
A short description of series [2]: Selectivity index, ratio of CC50 for HEK293T cells to IC50 for antiviral activity against HIV-based lentiviral pseudotyped Ebolavirus harboring mucin domain deleted GP infected in HEK293T cells assessed as inhibition of viral entry. Conditions: human. The class given is toxicity, cell-based.
Series [3] is described as follows: Drug uptake in human skin fibroblast lysosomes assessed as fold change in corrected total cell fluorescence at 50 uM measured after 2 hrs by LysoTracker Red DND-99 dye based laser scanning confocal microscopy relative to control. The class given is ADME, subcellular, Lysosome.

SMILES strings stand for the structures.

Regarding `CC1CCN(CCCC(=O)O[C@H]2C(C)(C)[C@H]3CC[C@]2(C)C3)CC1`, the Ratio CC50/IC50 in series [1] came to 5; in series [2], 46.

For the compound `CCN1CCN(CC(=O)O[C@H]2C(C)(C)[C@H]3CC[C@]2(C)C3)CC1`, the figures for the Ratio CC50/IC50 in series [1] and in series [2] were 30 and 99, respectively.

On to `CN1CCN(CCCC(=O)O[C@H]2C(C)(C)[C@H]3CC[C@]2(C)C3)CC1`, for which the Ratio CC50/IC50 in series [1] was more than 38; in series [2] it was more than 250.

With `CN(C)CCOc1ccc(/C(=C(/CCCl)c2ccccc2)c2ccccc2)cc1` [TOREMIFENE], the fold change (FC) in series [3] stood at 0.27. The Ratio CC50/IC50 in series [1] stood at 24; in series [2], 85.

As for `C[C@@H]1[C@H]2C[C@@H](C[C@H]1OC(=O)CCN1CCN(C)CC1)C2(C)C`, the results for the Ratio CC50/IC50 in series [1] and in series [2] were 22 and 65, respectively.

As for `CCN1CCN(CCCC(=O)O[C@H]2C(C)(C)[C@H]3CC[C@]2(C)C3)CC1`, the Ratio CC50/IC50 in series [1] was 35; in series [2], 168.

Take `CN1CCN(CC(=O)O[C@H]2C(C)(C)[C@H]3CC[C@]2(C)C3)CC1`: the figures for the Ratio CC50/IC50 in series [1] and in series [2] were 23 and 32, respectively.

With `CC1(C)[C@H]2CC[C@](C)(C2)[C@H]1OC(=O)CCCN1CCCCC1`, the Ratio CC50/IC50 is 35 in series [1] and 241 in series [2].

On to `CC1(C)[C@H]2CC[C@](C)(C2)[C@H]1OC(=O)CCN1CCOCC1`, for which the Ratio CC50/IC50 is 4 in series [1] and 5 in series [2].

As to `C[C@@H]1[C@H]2C[C@@H](C[C@H]1OC(=O)CN1CCN(C)CC1)C2(C)C`, the Ratio CC50/IC50 in series [1] was determined as 13; in series [2], 131.

Turning to `CC1CCN(CC(=O)O[C@H]2C(C)(C)[C@H]3CC[C@]2(C)C3)CC1`, the Ratio CC50/IC50 in series [1] and in series [2] was 12 each time.
